Source: patent US12490739B2, “Synergistically effective fungicide composition comprising choline phosphonate and at least one additional fungicide” (BELCHIM CROP PROTECTION NV, priority 2019, dated 2025)

Tests used:
Venturia inaequalis = test: Example 15 field trial, apple (Malus domestica var. Gala) infected with apple scab, France; format: in vivo; conditions: PESINC, 200 leaves, 3316 g a.c./ha
Podosphaera leucotricha = test: Example 14 field trials, apple (Malus domestica var. Gold Rush, var. Morgenduft Dallago) infected with powdery mildew; format: in vivo; conditions: 100 leaves, 1948.15 g a.c./ha
Plasmopara viticola = test: Example 6 field trials, Vitis vinifera infected with downy mildew; format: in vivo; conditions: 3250 g a.c./ha
Phytophthora infestans = test: Example 11 potted potato plants (Solanum tuberosum L. var. Bintje) infected with late blight, Belgium; conditions: PESINC; 14 DA-A2; 3316 g a.c./ha
Sphaerotheca fuliginea = test: Example 3 field trial, cucumber (Cucumis sativus var. Bosco) infected with powdery mildew, Italy; format: in vivo; conditions: 3500 g a.c./ha
Uncinula necator = test: Example 12 field trial, Vitis vinifera var. Carignan infected with powdery mildew, France; format: in vivo; conditions: PESINC, 1740.9 g a.c./ha

## choline phosphonate
Venturia inaequalis; 28 DA-A12, BBCH 73
  CP f.e. (%): 67.7%
Venturia inaequalis; 56 DA-A12, BBCH 75
  CP f.e. (%): 65.3%
Podosphaera leucotricha; PESINC, location 1 (France), 5 DA-A8, BBCH 74
  CP f.e. (%): 34.0%
Podosphaera leucotricha; PESINC, location 1 (France), 6 DA-A6, BBCH 74
  CP f.e. (%): 44.2%
Podosphaera leucotricha; PESINC, location 1 (France), 15 DA-A8, BBCH 76
  CP f.e. (%): 18.6%
Podosphaera leucotricha; PESINC, location 1, 5 DA-A8, BBCH 74, second listing (r52)
  CP f.e. (%): 37.7%
Podosphaera leucotricha; PESINC, location 1, 6 DA-A6, BBCH 74, second listing (r46)
  CP f.e. (%): 23.6%
Podosphaera leucotricha; PESINC, location 1, 15 DA-A8, BBCH 76, second listing (r58)
  CP f.e. (%): 14.1%
Podosphaera leucotricha; PESSEV, location 1 (France), 5 DA-A8, BBCH 74
  CP f.e. (%): 62.5%
Podosphaera leucotricha; PESSEV, location 1 (France), 6 DA-A6, BBCH 74
  CP f.e. (%): 53.1%
Podosphaera leucotricha; PESSEV, location 1 (France), 15 DA-A8, BBCH 76
  CP f.e. (%): 34.2%
Podosphaera leucotricha; PESSEV, location 1, 5 DA-A8, BBCH 74, second listing (r49)
  CP f.e. (%): 19.3%
Podosphaera leucotricha; PESSEV, location 1, 6 DA-A6, BBCH 74, second listing (r43)
  CP f.e. (%): 30.4%
Podosphaera leucotricha; PESSEV, location 1, 15 DA-A8, BBCH 76, second listing (r55)
  CP f.e. (%): 12.2%
Plasmopara viticola; PESINC, location 1 (France, Negrette), 50 bunches, 1 DA-A6, BBCH 69
  CP f.e. (%): 32.5%
Plasmopara viticola; PESINC, location 1 (France, Negrette), 50 bunches, 1 DA-A8, BBCH 75
  CP f.e. (%): 6.0%
Plasmopara viticola; PESINC, location 1 (France, Negrette), 50 bunches, 16 DA-A9, BBCH 81
  CP f.e. (%): 0.0%
Plasmopara viticola; PESINC, location 2 (France, Grenache), 50 bunches, 9 DA-A4, BBCH 71
  CP f.e. (%): 0.0%
Plasmopara viticola; PESINC, location 2 (France, Grenache), 50 bunches, 9 DA-A4, BBCH 77
  CP f.e. (%): 0.0%
Plasmopara viticola; PESINC, location 2 (France, Grenache), 100 leaves, 6 DA-A5, BBCH 77
  CP f.e. (%): 0.0%
Plasmopara viticola; PESINC, location 2 (France, Grenache), 100 leaves, 9 DA-A4, BBCH 71
  CP f.e. (%): 0.8%
Plasmopara viticola; PESINC, location 3 (Germany, Mueller-Thurgau), 50 bunches, 11 DA-A4, BBCH 75
  CP f.e. (%): 55.5%
Plasmopara viticola; PESINC, location 3 (Germany, Mueller-Thurgau), 100 leaves, 7 DA-A8, BBCH 83
  CP f.e. (%): 0.0%
Plasmopara viticola; PESINC, location 3 (Germany, Mueller-Thurgau), 100 leaves, 13 DA-A6, BBCH 83
  CP f.e. (%): 0.3%
Plasmopara viticola; PESSEV, location 1 (France, Negrette), 50 bunches, 1 DA-A8, BBCH 75
  CP f.e. (%): 30.0%
Plasmopara viticola; PESSEV, location 1 (France, Negrette), 50 bunches, 16 DA-A9, BBCH 81
  CP f.e. (%): 19.2%
Plasmopara viticola; PESSEV, location 2 (France, Grenache), 50 bunches, 8 DA-A5, BBCH 77
  CP f.e. (%): 0.4%
Plasmopara viticola; PESSEV, location 2 (France, Grenache), 50 bunches, 9 DA-A4, BBCH 71
  CP f.e. (%): 4.5%
Plasmopara viticola; PESSEV, location 2 (France, Grenache), 50 bunches, 9 DA-A6, BBCH 79
  CP f.e. (%): 0.0%
Plasmopara viticola; PESSEV, location 2 (France, Grenache), 100 leaves, 6 DA-A5, BBCH 77
  CP f.e. (%): 21.4%
Plasmopara viticola; PESSEV, location 2 (France, Grenache), 100 leaves, 9 DA-A4, BBCH 71
  CP f.e. (%): 57.8%
Plasmopara viticola; PESSEV, location 3 (Germany, Mueller-Thurgau), 50 bunches, 7 DA-A8, BBCH 83
  CP f.e. (%): 8.7%
Plasmopara viticola; PESSEV, location 3 (Germany, Mueller-Thurgau), 50 bunches, 11 DA-A4, BBCH 75
  CP f.e. (%): 66.5%
Plasmopara viticola; PESSEV, location 3 (Germany, Mueller-Thurgau), 50 bunches, 13 DA-A6, BBCH 83
  CP f.e. (%): 14.4%
Plasmopara viticola; PESSEV, location 3 (Germany, Mueller-Thurgau), 100 leaves, 13 DA-A6, BBCH 83
  CP f.e. (%): 25.9%
Phytophthora infestans
  CP f.e. (%): 10.1%
Sphaerotheca fuliginea; PESINC curative, 7 DA-A2, BBCH 73
  CP f.e. (%): 77.1%
Sphaerotheca fuliginea; PESINC curative, 7 DA-A3, BBCH 76
  CP f.e. (%): 71.7%
Sphaerotheca fuliginea; PESINC curative, 7 DA-A4, BBCH 77
  CP f.e. (%): 60%
Sphaerotheca fuliginea; PESINC curative, 14 DA-A4, BBCH 78
  CP f.e. (%): 38.6%
Sphaerotheca fuliginea; PESINC, 7 DA-A2, BBCH 73
  CP f.e. (%): 74.3%
Sphaerotheca fuliginea; PESINC, 7 DA-A3, BBCH 76
  CP f.e. (%): 78.8%
Sphaerotheca fuliginea; PESINC, 7 DA-A4, BBCH 77
  CP f.e. (%): 70.0%
Sphaerotheca fuliginea; PESINC, 14 DA-A4, BBCH 78
  CP f.e. (%): 59.5%
Sphaerotheca fuliginea; PESINC, 21 DA-A4, BBCH 79
  CP f.e. (%): 55.7%
Sphaerotheca fuliginea; PESSEV curative, 7 DA-A2, BBCH 73
  CP f.e. (%): 88.6%
Sphaerotheca fuliginea; PESSEV curative, 7 DA-A3, BBCH 76
  CP f.e. (%): 89.4%
Sphaerotheca fuliginea; PESSEV curative, 7 DA-A4, BBCH 77
  CP f.e. (%): 89.9%
Sphaerotheca fuliginea; PESSEV curative, 14 DA-A4, BBCH 78
  CP f.e. (%): 91.2%
Sphaerotheca fuliginea; PESSEV, 7 DA-A2, BBCH 73
  CP f.e. (%): 92.5%
Sphaerotheca fuliginea; PESSEV, 7 DA-A4, BBCH 77
  CP f.e. (%): 91.7%
Sphaerotheca fuliginea; PESSEV, 14 DA-A4, BBCH 78
  CP f.e. (%): 89.0%
Sphaerotheca fuliginea; PESSEV, 21 DA-A4, BBCH 79
  CP f.e. (%): 93.4%
Uncinula necator; 50 bunches, 14 DA-A3, BBCH 77
  CP f.e. (%): 3.8%
Uncinula necator; 50 bunches, 14 DA-A3, BBCH 77, second listing (r34)
  CP f.e. (%): 0.8%
Uncinula necator; 50 bunches, 14 DA-A5, BBCH 83
  CP f.e. (%): 38.6%
Uncinula necator; 50 bunches, 14 DA-A5, BBCH 83, second listing (r36)
  CP f.e. (%): 0%
Uncinula necator; 100 leaves, 14 DA-A3, BBCH 77
  CP f.e. (%): 34.1%
